In PubChem BioAssay AID540333 (Southern Research Specialized Biocontainment Screening …, 2011):
The list shows a part of the results, in another mix than the full data. The source made the active and inactive calls. No stated cut-off is given here; in the data, active means CPE inhibition mostly above about 9.1% (no sharp cut-off); inactive means mostly below about 7.2%.

Assay: Dengue virus cytopathic effect inhibitors, cell-based, CPE readout, HTS (AID 540333)
Conditions: Dengue virus CPE inhibition in host cells; at 20 µM; stronger effect = higher value
With `CC(=O)NC(SC(=S)N(C)C)C(Cl)(Cl)Cl` (centres undefined) the CPE inhibition was inactive: 0%. With `CC(=O)NC(SC(=S)N(CC(C)C)CC(C)C)C(Cl)(Cl)Cl` (centres undefined) the CPE inhibition was inactive: 3.89%. For `Cc1cc(SC(NC(=O)c2ccccc2)C(Cl)(Cl)Cl)nc(C(C)C)n1` (centres undefined), the CPE inhibition was inactive: 0%. In the case of `Cc1ccc(NCCc2c([N+](=O)[O-])cc([N+](=O)[O-])cc2[N+](=O)[O-])cc1`, the CPE inhibition is reported as inactive: 6.13%.
